Assay results reported in the supplement of paper PMC3578754.

Legend:
Assay in all cases: fold change of IC50 against reference virus; higher = more resistant; Cell-culture drug susceptibility tests of virus bearing the protease of each isolate, gathered from many studies.
[1] = compound: CC(C)(C)NC(=O)[C@@H]1CN(Cc2cccnc2)CCN1C[C@@H](O)C[C@@H](Cc1ccccc1)C(=O)N[C@H]1c2ccccc2C[C@H]1O [indinavir]
[2] = compound: CC(C)(C)NC(=O)[C@@H]1C[C@@H]2CCCC[C@@H]2CN1C[C@@H](O)[C@H](Cc1ccccc1)NC(=O)[C@H](CC(N)=O)NC(=O)c1ccc2ccccc2n1 [saquinavir]
[3] = compound: COC(=O)N[C@H](C(=O)N[C@@H](Cc1ccccc1)[C@@H](O)CN(Cc1ccc(-c2ccccn2)cc1)NC(=O)[C@@H](NC(=O)OC)C(C)(C)C)C(C)(C)C [atazanavir]
[4] = compound: Cc1c(O)cccc1C(=O)N[C@@H](CSc1ccccc1)[C@H](O)CN1C[C@H]2CCCC[C@H]2C[C@H]1C(=O)NC(C)(C)C [nelfinavir]
[5] = compound: CC(C)c1nc(CN(C)C(=O)N[C@H](C(=O)N[C@@H](Cc2ccccc2)C[C@H](O)[C@H](Cc2ccccc2)NC(=O)OCc2cncs2)C(C)C)cs1 [ritonavir]

Test System: HIV-1 isolate 457 (protease changes: L10F T12S L19Q K20R D30N L63P V77I N88D L89I, study 115)
- fold change of IC50 against reference virus [1]: 1.9
- fold change of IC50 against reference virus [2]: 2
- fold change of IC50 against reference virus [3]: 2.3
- fold change of IC50 against reference virus [4]: 46
- fold change of IC50 against reference virus [5]: 1.1

Test System: HIV-1 isolate 1343 (protease changes: L10I I13V D30N E35D N37Y R41K M46I L63Q I64V I72V V77I I85V N88S, study 115)
- fold change of IC50 against reference virus [1]: 1.8
- fold change of IC50 against reference virus [2]: 1
- fold change of IC50 against reference virus [3]: 2.7
- fold change of IC50 against reference virus [4]: 7.4
- fold change of IC50 against reference virus [5]: 1.6

Test System: HIV-1 isolate 640 (protease changes: L10I I54V L63P A71V V77I V82A I93L, study 24)
- fold change of IC50 against reference virus [1]: 13
- fold change of IC50 against reference virus [2]: 4
- fold change of IC50 against reference virus [3]: 6
- fold change of IC50 against reference virus [4]: 15
- fold change of IC50 against reference virus [5]: 33

Test System: HIV-1 isolate 263 (protease changes: I13V D30N E35D M36I I62V L63P I64V A71T V75I, study 115)
- fold change of IC50 against reference virus [1]: 1.1
- fold change of IC50 against reference virus [2]: 0.5
- fold change of IC50 against reference virus [3]: 1.9
- fold change of IC50 against reference virus [4]: 25
- fold change of IC50 against reference virus [5]: 0.6

Test System: HIV-1 isolate 1076 (protease changes: L10I I15V L19P K20I E35D M36I R41K I62V L63P A71V G73S I84V L90M, study 83)
- fold change of IC50 against reference virus [1]: 24
- fold change of IC50 against reference virus [2]: 132
- fold change of IC50 against reference virus [3]: 21
- fold change of IC50 against reference virus [4]: 42
- fold change of IC50 against reference virus [5]: 29

Test System: HIV-1 isolate 530 (protease changes: L10Y I50L L63P A71V N88S, study 43)
- fold change of IC50 against reference virus [1]: 2
- fold change of IC50 against reference virus [2]: 2
- fold change of IC50 against reference virus [3]: 93
- fold change of IC50 against reference virus [4]: 5
- fold change of IC50 against reference virus [5]: 0.1

Test System: HIV-1 isolate 1624 (protease changes: L10F K20R D30N E35D M36V N37D L63P H69Y K70E A71V V77I I84V N88D, study 115)
- fold change of IC50 against reference virus [1]: 8.2
- fold change of IC50 against reference virus [2]: 33
- fold change of IC50 against reference virus [3]: 49
- fold change of IC50 against reference virus [4]: 232
- fold change of IC50 against reference virus [5]: 13

Test System: HIV-1 isolate 647 (protease changes: L10I I13V K20R E35D M36I I54V L63P I64V V82A L90M, study 24)
- fold change of IC50 against reference virus [1]: 8
- fold change of IC50 against reference virus [2]: 4
- fold change of IC50 against reference virus [3]: 5
- fold change of IC50 against reference virus [4]: 18
- fold change of IC50 against reference virus [5]: 93

Test System: HIV-1 isolate 653 (protease changes: T12S I15V L19I K20R E35D M36I R41K I50L H69K L89M I93L, study 115)
- fold change of IC50 against reference virus [1]: 0.4
- fold change of IC50 against reference virus [2]: 0.3
- fold change of IC50 against reference virus [3]: 9.5
- fold change of IC50 against reference virus [4]: 0.4
- fold change of IC50 against reference virus [5]: 0.3

Test System: HIV-1 isolate 296 (protease changes: R41K I54V L63P A71V V82A I93L, study 24)
- fold change of IC50 against reference virus [1]: 15
- fold change of IC50 against reference virus [2]: 3
- fold change of IC50 against reference virus [3]: 6
- fold change of IC50 against reference virus [4]: 17
- fold change of IC50 against reference virus [5]: 33

Test System: HIV-1 isolate 686 (protease changes: none, study 43)
- fold change of IC50 against reference virus [1]: 1
- fold change of IC50 against reference virus [2]: 1
- fold change of IC50 against reference virus [3]: 1
- fold change of IC50 against reference virus [4]: 1
- fold change of IC50 against reference virus [5]: 1

Test System: HIV-1 isolate 1530 (protease changes: I13V K14R K20I E35D M36I R41K M46I H69K V82I L89M L90M, study 115)
- fold change of IC50 against reference virus [1]: 2.6
- fold change of IC50 against reference virus [2]: 3.5
- fold change of IC50 against reference virus [3]: 3.8
- fold change of IC50 against reference virus [4]: 15
- fold change of IC50 against reference virus [5]: 13

Test System: HIV-1 isolate 1156 (protease changes: L10I I13V K20I L33I E35D M36I I54V Q58E L63P I66V A71V V82T L90M, study 24)
- fold change of IC50 against reference virus [1]: 78
- fold change of IC50 against reference virus [2]: 40
- fold change of IC50 against reference virus [3]: 82
- fold change of IC50 against reference virus [4]: 101
- fold change of IC50 against reference virus [5]: 90

Test System: HIV-1 isolate 1506 (protease changes: L10F T12A I13V D30N L33I E35D M36I F53L I54L D60E I62V L63P I66V A71T I84V I85V N88D I93L, study 115)
- fold change of IC50 against reference virus [1]: 2.8
- fold change of IC50 against reference virus [2]: 6.9
- fold change of IC50 against reference virus [3]: 12
- fold change of IC50 against reference virus [4]: 72
- fold change of IC50 against reference virus [5]: 2.8

Test System: HIV-1 isolate 1222 (protease changes: E35D M36I R41K R57K I62V L63P V77I I93L, study 115)
- fold change of IC50 against reference virus [1]: 0.8
- fold change of IC50 against reference virus [2]: 0.7
- fold change of IC50 against reference virus [3]: 0.7
- fold change of IC50 against reference virus [4]: 1.5
- fold change of IC50 against reference virus [5]: 1

Test System: HIV-1 isolate 1456 (protease changes: I13V I15V D30N E35D M36I K45Q R57K L63P, study 115)
- fold change of IC50 against reference virus [1]: 1
- fold change of IC50 against reference virus [2]: 1
- fold change of IC50 against reference virus [3]: 2.4
- fold change of IC50 against reference virus [4]: 34
- fold change of IC50 against reference virus [5]: 0.8

Test System: HIV-1 isolate 338 (protease changes: L10F I13V N37D L63P V77I N88S I93L, study 115)
- fold change of IC50 against reference virus [1]: 4.2
- fold change of IC50 against reference virus [2]: 1.3
- fold change of IC50 against reference virus [3]: 6
- fold change of IC50 against reference virus [4]: 7.7
- fold change of IC50 against reference virus [5]: 0.8

Test System: HIV-1 isolate 900 (protease changes: L10I I54V L63P A71V V77I V82A I93L, study 24)
- fold change of IC50 against reference virus [1]: 16
- fold change of IC50 against reference virus [2]: 4
- fold change of IC50 against reference virus [3]: 6
- fold change of IC50 against reference virus [4]: 19
- fold change of IC50 against reference virus [5]: 40

Test System: HIV-1 isolate 759 (protease changes: I13V E35D I62V L63P, study 115)
- fold change of IC50 against reference virus [1]: 0.8
- fold change of IC50 against reference virus [2]: 0.8
- fold change of IC50 against reference virus [3]: 0.8
- fold change of IC50 against reference virus [4]: 1.3
- fold change of IC50 against reference virus [5]: 0.8

Test System: HIV-1 isolate 1235 (protease changes: D30N M46I I64V V77I, study 24)
- fold change of IC50 against reference virus [1]: 2
- fold change of IC50 against reference virus [2]: 0.6
- fold change of IC50 against reference virus [3]: 2
- fold change of IC50 against reference virus [4]: 43
- fold change of IC50 against reference virus [5]: 1

Test System: HIV-1 isolate 1016 (protease changes: V32I M46I A71V N88S, study 43)
- fold change of IC50 against reference virus [1]: 4
- fold change of IC50 against reference virus [2]: 2
- fold change of IC50 against reference virus [3]: 12
- fold change of IC50 against reference virus [4]: 12
- fold change of IC50 against reference virus [5]: 3

Test System: HIV-1 isolate 575 (protease changes: L10I G48V R57G L90M, study 43)
- fold change of IC50 against reference virus [1]: 3
- fold change of IC50 against reference virus [2]: 8
- fold change of IC50 against reference virus [3]: 1
- fold change of IC50 against reference virus [4]: 2
- fold change of IC50 against reference virus [5]: 2

Test System: HIV-1 isolate 1389 (protease changes: V11I I15V G16A D30N K43R L63P H69K I93L, study 115)
- fold change of IC50 against reference virus [1]: 0.9
- fold change of IC50 against reference virus [2]: 0.5
- fold change of IC50 against reference virus [3]: 1.8
- fold change of IC50 against reference virus [4]: 14
- fold change of IC50 against reference virus [5]: 0.6

Fold change is the IC50 on the isolate divided by the IC50 on a reference virus; 1 = unchanged, higher = more resistant. Changes are given against the subtype B consensus. No active / inactive call. The values were gathered from many studies (numbered anew) with different assays, which the source does not name. Most viruses are clinical isolates; some are laboratory strains or clones with known resistance changes. Isolates with mixed residues are left out; stretches that were not sequenced show no change. Round top values that many isolates share are read here as limits; other very high values and 0.1 may be limits too. The protease changes I3V and N37S, insertions and deletions cannot be read from the source.
